System: EV71 SHZH98 strain
Experiment: CPE inhibition assay for anti-EV71 in Vero cells
Format: cell-based, enterovirus 71
Conditions: TC50/IC50, EV71 SHZH98, Vero cells
Protocol: The anti-EV71 activity of formononetin was assayed by CPE inhibition method. Briefly, cells (3 × 10^4 cells/well) were plated into 96-well culture plates for incubation of 24 h. The medium was then removed and cells were infected with EV71 of 80 pfu/well. Then, various concentrations of formononetin were supplemented for incubation of another 48 h. […] The selectivity index (SI) was calculated as the ratio of TC50/IC50 [19].

Compound	SI	SI (listed as formononetin)
COc1ccc(-c2coc3cc(O)ccc3c2=O)cc1 [Formononetin]	43.30	38.11
CCOC(=O)c1ccc(OCCC2CCN(c3ccc(C)nn3)CC2)cc1 [Pirodavir, reference compound]	58.76	–

From paper PMC4351682, “Formononetin inhibits enterovirus 71 replication by regulating COX- 2/PGE2 expression” (Virology Journal, 2015)
